{
  "source": "patent US11779630B2",
  "about": "“Peptides and methods of using the same” (SERPIN PHARMA, LLC, priority 2020, dated 2023)",
  "key": {"[1]": {"tested_on": "Influenza A H1N1", "conditions": "MDCK"}, "[2]": {"tested_on": "Microglia with HIV on a BBB insert", "assay": "HIV induced cytokines in microglia on 3D-BBB trans-well insert", "assay_type": "cell-based", "conditions": "increasing concentrations up to 100 μg/ml, 24 hours"}, "[3]": {"tested_on": "Rift Valley fever virus", "conditions": "Vero 76"}, "[4]": {"tested_on": "LPS stimulated human immune cells (THP1 monocytes)", "assay_type": "cell-based", "conditions": "various doses and time-points"}, "[5]": {"tested_on": "Western equine encephalitis virus", "conditions": "Vero 76"}, "[6]": {"tested_on": "Yellow Fever Virus", "conditions": "Huh7"}, "[7]": {"tested_on": "EEEV nano-luciferase reporter virus", "conditions": "16 h"}, "[8]": {"tested_on": "VEEV TC83 luciferase virus"}},
  "data": [
    {"smiles": "CCCC[C@H](NC(=O)[C@H](CC(C)C)NC(=O)[C@H](Cc1ccccc1)NC(=O)[C@@H](NC(=O)[C@H](Cc1ccccc1)NC(=O)[C@@H]1CCCN1C(=O)[C@H](CCCCN)NC(=O)[C@H](CC(N)=O)NC(=O)[C@H](Cc1ccccc1)NC(=O)[C@H](CCCCN)NC(=O)[C@@H](NC(C)=O)C(C)C)C(C)C)C(=O)N[C@H](C(=O)N[C@@H](CCC(=O)O)C(=O)N[C@@H](CCC(N)=O)C(=O)N[C@@H](CC(N)=O)C(=O)N[C@H](C(=O)N[C@@H](CCCCN)C(N)=O)[C@@H](C)O)[C@@H](C)CC", "note": "[VKFNKPFVFL[Nle]IEQNTK]", "values": [
      {"measurement": "EC50", "setting": "[1]", "result": 47, "unit": "µg/mL"},
      {"measurement": "HIV induced IL-6, MCP-1 and IL-8", "setting": "[2]", "result": "significantly decreased"},
      {"measurement": "EC50", "setting": "[3]", "result": 17, "unit": "µg/mL"},
      {"measurement": "top canonical pathways changed by LPS, VEEV or Rift Valley Fever Virus", "setting": "[4]", "result": "counteracted these changes, restoring the profile back to a normal state"},
      {"measurement": "EC50", "setting": "[5]", "result": 63, "unit": "µg/mL"},
      {"measurement": "EC50", "setting": "[6]", "result": 47, "unit": "µg/mL"},
      {"measurement": "EC50, EEEV replication", "setting": "[7]", "result": 0.84, "unit": "µg/mL"},
      {"measurement": "VEEV replication (luminescence)", "setting": "[8]", "result": "reduced VEEV replication"},
      {"measurement": "EC50, VEEV replication", "setting": "[8]; 16 h", "result": 67.12, "unit": "µg/mL"}
    ]}
  ]
}
